The values below come from patent US8092810B2, “Use of polypeptides having antimicrobial activity” (Novozymes A/S, priority 2006, dated 2012).

A short description of this data set: Odor evaluation of soiled laundry, wash in buffer. The following applies: particularly on T-shirt 1 and the sock.

B1: Lento: Bacillus licheniformis polypeptide having amino acids 1-85 of SEQ ID NO: 2, purified from ATCC 14580 fermentation broth (protein)
chain: MKNHLYEKKKRKPLTRTIKATLAVLTMSIALVGGATVPSFAWVNPGYHYQYPSEGGTWRYGFVNAGLRSEYNHPTKVHGSTVQKL
modifications: Bacillus licheniformis ATCC 14580
With B1, the “effect on the odor of the items” value is “reducing effect on the odor of the items”.
